Results taken from publication PMC6318274, “Lattice engineering enables definition of molecular features allowing for potent small-molecule inhibition of HIV-1 entry” (Nature Communications, 2019).
Several values for one entry are separate records, joined by “and”; a condition that tells them apart may be missing. Equal values may be shown once. Read-outs that look alike come from different tables or passages of the source.

Tests used:
[1] = test system: HIV-1 Env-pseudoviruses (30-strain panel); assay: Neutralization assay, cross-clade 30-strain panel (Env-pseudoviruses, TZM-bl target cells); assay type: cell-based
[2] = test system: HIV-1 strain NL4-3; assay: Entry inhibition of laboratory-adapted HIV-1 strain NL4-3; assay type: cell-based; conditions: NL4-3 EC50
[3] = test system: HIV-1 Env-pseudoviruses (208-strain panel); assay type: cell-based
[4] = target: BG505 DS-SOSIP.664 Env trimer (Human immunodeficiency virus 1, UniProt Q2N0S5, A430C/A498C/I200C/I556P/T330N/T602C, form not given); assay type: binding, HIV-1; conditions: ITC, 37 °C

COc1cnc(-c2csc(C(=O)NCCO)n2)c2[nH]cc(C(=O)C(=O)N3CCC(=C(C#N)c4ccccc4)CC3)c12 [BMS-818251]
Fold improvement (BMS-818251 over BMS-814508) [1]: > 26.7
fold higher neutralization potency than BMS-626529 ([1]; 30-strain panel, geometric mean IC50): roughly 20 fold
Fold improvement (BMS-818251 over BMS-814508) ([1]; 242-14 (Clade AG)): > 50.0 fold
Fold improvement (BMS-818251 over BMS-814508) ([1]; 247-23 (Clade D)): > 53.3 fold
Fold improvement (BMS-818251 over BMS-814508) ([1]; 0330.v4.c3 (Clade A)): 24.0 fold
Fold improvement (BMS-818251 over BMS-814508) ([1]; 426c (Clade C)): 90.0 fold
Fold improvement (BMS-818251 over BMS-814508) ([1]; 7165.18 (Clade B)): 37.8 fold
Fold improvement (BMS-818251 over BMS-814508) ([1]; B41 (Clade B)): > 3.3 fold
Fold improvement (BMS-818251 over BMS-814508) ([1]; BJOX028000.10.3 (Clade AE)): > 5.5 fold
Fold improvement (BMS-818251 over BMS-814508) ([1]; BL01.DG (Clade B)): 5.3 fold
Fold improvement (BMS-818251 over BMS-814508) ([1]; C4118.09 (Clade AE)): 22.5 fold
Fold improvement (BMS-818251 over BMS-814508) ([1]; CAP210.E8 (Clade C)): 18.2 fold
Fold improvement (BMS-818251 over BMS-814508) ([1]; CH119.10 (Clade BC)): > 13.3 fold
Fold improvement (BMS-818251 over BMS-814508) ([1]; CNE10 (Clade B)): > 13.3 fold
Fold improvement (BMS-818251 over BMS-814508) ([1]; CNE20 (Clade BC)): 23.8 fold
Fold improvement (BMS-818251 over BMS-814508) ([1]; CNE56 (Clade AE)): > 8.5 fold
Fold improvement (BMS-818251 over BMS-814508) ([1]; DJ263.8 (Clade AG)): 1.0 fold
Fold improvement (BMS-818251 over BMS-814508) ([1]; DU156.12 (Clade C)): > 66.7 fold
Fold improvement (BMS-818251 over BMS-814508) ([1]; KER2008.12 (Clade A)): 15.0 fold
Fold improvement (BMS-818251 over BMS-814508) ([1]; MB201.A1 (Clade A)): 13.7 fold
Fold improvement (BMS-818251 over BMS-814508) ([1]; NKU3006.ec1 (Clade D)): > 3.3 fold
Fold improvement (BMS-818251 over BMS-814508) ([1]; P0402.c2.11 (Clade G)): > 40.0 fold
Fold improvement (BMS-818251 over BMS-814508) ([1]; PVO.04 (Clade B)): > 6.7 fold
Fold improvement (BMS-818251 over BMS-814508) ([1]; R3265.c6 (Clade AE)): 33.1 fold
Fold improvement (BMS-818251 over BMS-814508) ([1]; REJO.67 (Clade B)): 6.1 fold
Fold improvement (BMS-818251 over BMS-814508) ([1]; T253-11 (Clade AG)): 1.0 fold
Fold improvement (BMS-818251 over BMS-814508) ([1]; T280-5 (Clade AG)): > 2.7 fold
Fold improvement (BMS-818251 over BMS-814508) ([1]; ZM106.9 (Clade C)): 62.0 fold
fold more potent than VRC01 ([1]; per-kDa, per active site basis, geometric mean IC50): ~ 30 fold
fold more potent than BMS-626529 [2]: ~ 100 fold
fold difference of geometric mean IC50 compared to BMS-626529 ([3]; 208-strain panel): 10.6 fold
fold difference of median IC50 compared to BMS-626529 ([3]; 208-strain panel): 18 fold
fold more potent than temsavir ([3]; cross-clade panel of 208 HIV-1 strains): > 10 fold
fold higher affinity than BMS-626529 [4]: ~ 9 fold and 8.6 fold and ~ 10 fold
